Pooled drug test results. Numbers come from NIAID ChemDB, via PubChem.

All rows: toxicity to cultured cells; cell line: MT-4; read-out: CC50

Rows are shuffled and stem from different studies. CCn is the concentration with n% toxicity to the cells.

{"SMILES": "COc1ncnc(NS(=O)(=O)c2ccc(N=C3C(=O)N(CN(C)C)c4ccccc43)cc2)c1OC", "value": "<1 µg/mL"}
{"SMILES": "Cc1cc(C(=O)Nc2ccc(S(=O)(=O)O)c3cc(S(=O)(=O)O)cc(S(=O)(=O)O)c23)ccc1NC(=O)Nc1ccc(C(=O)Nc2ccc(S(=O)(=O)O)c3cc(S(=O)(=O)O)cc(S(=O)(=O)O)c23)cc1C", "value": ">500 µg/mL"}
{"SMILES": "O=C(O[C@@H]1O[C@@H]2COC(=O)c3cc(O)c(O)c(O)c3-c3c(cc(O)c(O)c3O)C(=O)O[C@H]([C@H]1O)[C@@H]2O)c1cc(O)c(O)c(O)c1", "value": "13.1 µg/mL"}
{"SMILES": "Cc1cn([C@@H]2OC3COC4(O)CS(=O)(=O)OC34C2O[Si](C)(C)C(C)(C)C)c(=O)[nH]c1=O", "value": ">100 µM"}
{"SMILES": "Cc1ccc(C(=O)Nc2ccc(S(=O)(=O)O)c3cc(S(=O)(=O)O)cc(S(=O)(=O)O)c23)cc1NC(=O)c1cccc(C(=O)Nc2cc(C(=O)Nc3ccc(S(=O)(=O)O)c4cc(S(=O)(=O)O)cc(S(=O)(=O)O)c34)ccc2C)c1", "value": ">500 µg/mL"}
{"SMILES": "Cc1cn([C@@H]2OC3COC4(O)CS(=O)(=O)OC34C2O)c(=O)[nH]c1=O", "value": ">100 µM"}
{"SMILES": "O=C1O[C@H]2[C@@H]3OC(=O)c4cc(O)c(O)c5c4[C@@H]4C(=CC(=O)[C@](O)(O5)C4(O)O)C(=O)OC[C@H]2O[C@@H](OC(=O)c2cc(O)c(O)c(O)c2)C3OC(=O)c2cc(O)c(O)c3c2[C@@H]2C1=CC(=O)[C@](O)(O3)C2(O)O", "value": "63.1 µg/mL"}
{"SMILES": "COc1ncnc(NS(=O)(=O)c2ccc(N=C3C(=O)N(CN4CCCC4)c4ccc(C)cc43)cc2)c1OC", "value": "21.1 µg/mL"}
{"SMILES": "Cc1ccc(C(=O)Nc2ccc(S(=O)(=O)O)c3cc(S(=O)(=O)O)cc(S(=O)(=O)O)c23)cc1NC(=O)c1ccc(NC(=O)Nc2ccc(C(=O)Nc3cc(C(=O)Nc4ccc(S(=O)(=O)O)c5cc(S(=O)(=O)O)cc(S(=O)(=O)O)c45)ccc3C)cc2)cc1", "value": ">50 µg/mL"}
{"SMILES": "COc1ncnc(NS(=O)(=O)c2ccc(N=C3C(=O)N(CN4CCCCC4)c4ccc(C)cc43)cc2)c1OC", "value": "12.6 µg/mL"}
{"SMILES": "O=C1O[C@@H]2O[C@@H]3COC(=O)c4cc(O)c(O)c(O)c4-c4c(cc(O)c(O)c4O)C(=O)O[C@H]3[C@H](OC(=O)c3cc(O)c(O)c(O)c3)[C@H]2OC(=O)c2cc(O)c(O)c(O)c2Oc2cc(cc(O)c2O)C(=O)O[C@@H]2O[C@@H]3COC(=O)c4cc(O)c(O)c(O)c4-c4c(cc(O)c(O)c4O)C(=O)O[C@H]3[C@H](OC(=O)c3cc(O)c(O)c(O)c3)[C@H]2OC(=O)c2cc(O)c(O)c(O)c2Oc2c(O)cc1cc2O", "value": "39.9 µg/mL"}
{"SMILES": "O=C(CNc1ccc(C(=O)Nc2cc(S(=O)(=O)O)cc3cc(S(=O)(=O)O)cc(S(=O)(=O)O)c23)cc1)CNc1ccc(C(=O)Nc2cc(S(=O)(=O)O)cc3cc(S(=O)(=O)O)cc(S(=O)(=O)O)c23)cc1", "value": ">500 µg/mL"}
{"SMILES": "COc1ncnc(NS(=O)(=O)c2ccc(N=C3C(=O)N(CN4CCCC4)c4ccccc43)cc2)c1OC", "value": "2.1 µg/mL"}
{"SMILES": "O=CC(O)C(OC(=O)c1cc(O)c(O)c(O)c1)C1OC(=O)c2cc(O)c(O)c(O)c2-c2c(cc(O)c(O)c2O)C(=O)OCC1O", "value": "26.7 µg/mL"}
{"SMILES": "CCc1ccc(C(=O)Nc2ccc(S(=O)(=O)O)c3cc(S(=O)(=O)O)cc(S(=O)(=O)O)c23)cc1NC(=O)Nc1cc(C(=O)Nc2ccc(S(=O)(=O)O)c3cc(S(=O)(=O)O)cc(S(=O)(=O)O)c23)ccc1CC", "value": ">500 µg/mL"}
{"SMILES": "O=C[C@H](OC(=O)c1cc(O)c(O)c(O)c1)[C@@H](OC(=O)c1cc(O)c(O)c(O)c1)[C@@H]1OC(=O)c2cc(O)c(O)c(O)c2-c2c(cc(Oc3c(C(=O)O[C@@H]4O[C@@H]5COC(=O)c6cc(O)c(O)c(O)c6-c6c(cc(O)c(O)c6O)C(=O)O[C@H]5[C@H](OC(=O)c5cc(O)c(O)c(O)c5)[C@H]4OC(=O)c4cc(O)c(O)c(O)c4)cc(O)c(O)c3O)c(O)c2O)C(=O)OC[C@H]1O", "value": "30.6 µg/mL"}
{"SMILES": "COc1ncnc(NS(=O)(=O)c2ccc(N=C3C(=O)N(CN4CCOCC4)c4ccc(C)cc43)cc2)c1OC", "value": "9.3 µg/mL"}
{"SMILES": "O=C(Nc1ccc(C(=O)Nc2ccc(P(=O)(O)O)cc2)cc1)Nc1ccc(C(=O)Nc2ccc(P(=O)(O)O)cc2)cc1", "value": ">500 µg/mL"}
{"SMILES": "O=C(OC[C@H]1O[C@@H](O)[C@@H]2OC(=O)c3cc(O)c(O)c(O)c3-c3c(cc(O)c(O)c3O)C(=O)O[C@H]2[C@@H]1OC(=O)c1cc(O)c(O)c(O)c1Oc1cc2c(c(O)c1O)-c1c(cc(O)c(O)c1O)C(=O)O[C@@H]1[C@@H](OC2=O)[C@H](OC(=O)c2cc(O)c(O)c(O)c2)O[C@@H]2COC(=O)c3cc(O)c(O)c(O)c3-c3c(cc(O)c(O)c3O)C(=O)O[C@@H]12)c1cc(O)c(OC(=O)c2cc(O)c(O)c(O)c2)c(O)c1", "value": "33.7 µg/mL"}

2 of the rows above, restated:

| SMILES | value |
|---|---|
| O=CC(O)C(OC(=O)c1cc(O)c(O)c(O)c1)C1OC(=O)c2cc(O)c(O)c(O)c2-c2c(cc(O)c(O)c2O)C(=O)OCC1O | 26.7 µg/mL |
| O=C[C@H](OC(=O)c1cc(O)c(O)c(O)c1)[C@@H](OC(=O)c1cc(O)c(O)c(O)c1)[C@@H]1OC(=O)c2cc(O)c(O)c(O)c2-c2c(cc(Oc3c(C(=O)O[C@@H]4O[C@@H]5COC(=O)c6cc(O)c(O)c(O)c6-c6c(cc(O)c(O)c6O)C(=O)O[C@H]5[C@H](OC(=O)c5cc(O)c(O)c(O)c5)[C@H]4OC(=O)c4cc(O)c(O)c(O)c4)cc(O)c(O)c3O)c(O)c2O)C(=O)OC[C@H]1O | 30.6 µg/mL |